Reference: the supplement of paper PMC7156485
The list shows a part of the results, in another mix than the full data.

How the values were obtained:
Details in all cases: concentration: 10 µM; 24 h
HCC1569 [1] = assay: cell number relative to DMSO (% of DMSO); higher = more cells (less growth inhibition / toxicity)
In short: (§1)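 After 24 h at 37 °C with compounds at 10 µM, in triplicate, HCC1569 and TDF cells were fixed with 3.7% formaldehyde. Immunostaining used a rabbit anti-H1.0 antibody and an AlexaFluor 647 secondary, with DAPI, and six fields per well were imaged at ×10. H1.0 nuclear intensity or cell number is presented as percent of the plate control, from the median of replicates, with HCC1569 values smoothed for positional effects.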

TDF [2] = assay: as above
In short: as §1

TDF [3] = assay: H1.0 immunofluorescence intensity relative to DMSO (% of DMSO); higher = stronger H1.0 induction, active = 120 or more
In short: as §1

HCC1569 [4] = assay: H1.0 immunofluorescence intensity relative to DMSO (% of DMSO); higher = stronger H1.0 induction, active = 140 or more
In short: as §1
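Throughout, for H1.0 immunofluorescence intensity relative to DMSO: TDF is a line of transformed human dermal fibroblasts of mesenchymal origin.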
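Throughout, for cell number relative to DMSO: TDF denotes transformed human dermal fibroblasts of mesenchymal origin.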

Structure (SMILES)	cell number (HCC1569 [1])	cell number (TDF [2])	H1.0 immunofluorescence intensity (TDF [3])	H1.0 immunofluorescence intensity (HCC1569 [4])
COc1ccc(C=C(C#N)C#N)cc1	97.9	109	inactive: 93.7	inactive: 117
COc1ccc(C=C(C#N)C#N)cc1 [Tyrphostin 1]	99.9	98.7	inactive: 94	inactive: 103
